The entries are a selection whose mix differs from that of the whole data set. Active and inactive are the calls of the source. Rule as the data show it: active = inhibition above about 8.5% (passing the limit was not always enough); inconclusive = no clear call, values can overlap the other calls.

The assay deals with Mycobacterium tuberculosis FadD28 fatty-acid-AMP ligase. The experiment in a line: inhibitors of FadD28 bisubstrate probe binding, primary screen, biochemical, fluorescence polarization, single point (AID 588549). The settings on record: at 12.5 µM, active compounds read high. In general terms: Polarisation of emitted light reports the rotation of a fluorescent probe.
What is called inhibition is the relative decrease from the control value, in per cent. In the case of `CC(C)CC(=O)NC(Sc1ccc(Cl)cc1)C(Cl)(Cl)Cl` (stereo unspecified), the inhibition is inactive: -3.04%. The result for `Nc1cc(N)c2nonc2c1[N+](=O)[O-]` reads inactive: -2.07%; that for `O=C(NC(Sc1ccncn1)C(Cl)(Cl)Cl)c1ccccc1` (stereo unspecified), inactive: -2.19%; that for `Oc1ccccc1CNc1ccccn1`, inactive: -1.07%. Turning to `O=[N+]([O-])C1C(O)C(O)C([N+](=O)[O-])C(O)C1O` (stereo unspecified), the inhibition is inactive: -0.386%. Then `O=C(O)c1ccccc1[As](=O)(O)O`, with inactive: -2.28%; and `CC(=O)Nc1ccc([As](=O)(O)O)cc1`, with inactive: 0.304%. Then `CN(C)P(=O)(N(C)C)n1c(Nc2ccccc2)nnc1-c1ccccc1`, with inactive: -7.03%. Then `O=P(Nc1nc2ccc(Cl)cc2s1)(c1ccccc1)c1ccccc1`, with inactive: -1.65%; and `Cc1ccc(NP(=O)(Oc2ccccc2F)Oc2ccccc2F)nc1`, with inactive: -0.955%; and `CN(C(=O)Cc1ccc(Cl)c(Cl)c1)[C@H]1CCCC[C@@H]1N1CCCC1`, with inactive: -1.75%. In the case of `CCOP(=O)(Nc1ccccc1)OCC`, the inhibition is inactive: 0.432%. Take `Cc1cc(SC(NC(=O)c2ccc(F)cc2)C(Cl)(Cl)Cl)ncn1` (stereo unspecified): the inhibition was inactive: -1.86%.

As for `CCN(N=Nc1nonc1N)c1nonc1N`, the inhibition was inactive: -0.865%.

`Nc1cccc2ccc([As](=O)(O)O)cc12`: the inhibition is active: 15%. The result for `CCNC(=S)/N=C(\N)N[N+](=O)[O-]` reads inactive: -2.83%; that for `O=C(NC1CCS(=O)(=O)C1)NP(=S)(Oc1ccccc1)Oc1ccccc1` (stereo unspecified), inactive: -3.78%; that for `Cc1ccc(NP(=O)(Oc2cccc(C)c2)Oc2cccc(C)c2)nc1`, inactive: -0.0565%. The result for `c1ccc(-c2nn[nH]n2)c(-c2nn[nH]n2)c1` reads inactive: -0.0095%; that for `O=P1(N(CCCl)CCCl)OCCC2CCCCN21` (stereo unspecified), inactive: -0.56%; that for `CC(=O)NC(SC(=S)N(CC(C)C)CC(C)C)C(Cl)(Cl)Cl` (stereo unspecified), inactive: -5.88%. Then `Cc1ccc(OP(=O)(Nc2ccccn2)Oc2ccc(C)cc2)cc1`, with inactive: -3.94%; and `COC(=O)c1cc2c(s1)N=C(c1ccccc1)N(C)P2(=O)N1CCOCC1` (stereo unspecified), with inactive: -2.88%; and `CCC(=O)N1C2C3N(C(=O)CC)C1C1N(C(=O)CC)C(C(N1C(=O)CC)N3C(=O)CC)N2C(=O)CC`, with inactive: -0.47%. With `O=C(OC1CN2CCC1CC2)c1ccccc1` (stereo unspecified), the inhibition is inactive: -4.57%.

On to `CN(C)C(=O)Oc1noc2ccccc12`, for which the inhibition was inactive: -3.38%. The result for `O=c1c2cc([N+](=O)[O-])ccc2[nH]c2c([N+](=O)[O-])cc([N+](=O)[O-])cc12` reads inactive: -4.33%. Then `Cc1ccccc1OP(=O)(Nc1ccccn1)Oc1ccccc1C`, with inactive: -0.863%. Then `CC(NC(=O)COC(=O)C(O)(c1ccccc1)c1ccccc1)c1ccccc1` (stereo unspecified), with inactive: -1.09%.

Consider `CCOc1ccc(C2=NCC(CBr)S2)cc1` (stereo unspecified), for which the inhibition was inactive: 0.327%. Turning to `O=P1(Nc2nc3ccc(Cl)cc3s2)COc2ccccc2O1` (stereo unspecified), the inhibition is inactive: 0.232%.

Turning to `CCc1cc(O)c([N+](=O)[O-])c(C)c1[N+](=O)[O-]`, the inhibition is inactive: -4.12%. Take `CC(C)(C)C(=O)NC(Sc1ccccc1)C(Cl)(Cl)Cl` (stereo unspecified): the inhibition is inactive: -4.7%. `COC(=O)C1(C)COP(=O)(NCc2ccccc2)OC1` (stereo unspecified): the inhibition is inactive: -3.52%. On to `N#C/C(=C\c1ccc(N(CCBr)CCBr)cc1)C(N)=O`, for which the inhibition was inactive: -2.66%. Then `CC(=O)c1ccc(N2CC2c2ccncc2)cc1` (stereo unspecified), with inactive: -1.1%.

Regarding `C[C@@H]1C=CCP(=O)(Oc2ccccc2)O1` (stereo partly specified), the inhibition is inactive: 0.577%. Then `C[C@H]1OP(=O)(Oc2ccccc2)C[C@@H]2O[C@@H]21` (stereo partly specified), with inactive: -1.82%. The result for `Cc1ccccc1CN(C)C(=O)COC(=O)C(O)(c1ccccc1)c1ccccc1` reads inactive: -2.72%; that for `CC(=O)Nc1ccc(Oc2c([N+](=O)[O-])cc([N+](=O)[O-])cc2[N+](=O)[O-])cc1`, inactive: -1.04%. The result for `CC(=O)Nc1ccc([As](=O)(O)O)c(O)c1` reads inactive: -1.31%; that for `CC(C)C(=O)NC(Sc1ccccc1)C(Cl)(Cl)Cl` (stereo unspecified), inactive: -2.26%.

As to `O=P(Nc1nccs1)(c1ccccc1)c1ccccc1`, the inhibition was inactive: -4.64%. In the case of `c1nnnn1CCn1cnnn1`, the inhibition was inactive: -0.799%. Then `Nc1ccc(CCCCOc2ccccc2)cc1`, with inactive: 0.772%.

As to `COc1ccc(N)c([N+](=O)[O-])c1[N+](=O)[O-]`, the inhibition was inactive: -1.13%. The result for `O=P(Nc1ccccn1)(c1ccc(Br)cc1)c1ccc(Br)cc1` reads inactive: 0.351%; that for `C[C@H]1OP(=O)(Oc2ccccc2)[C@H](O)[C@H](O)[C@H]1N=[N+]=[N-]` (stereo partly specified), inactive: -3.13%; that for `O=P(Nc1nc2ccccc2s1)(c1ccccc1)c1ccccc1`, inactive: -3.64%. Then `O=[N+]([O-])c1ccc(O)c(/C=N/Nc2ccc([N+](=O)[O-])cc2[N+](=O)[O-])c1`, with inactive: 0.563%; and `CC(=O)NC(SC(=S)N(C)C)C(Cl)(Cl)Cl` (stereo unspecified), with inactive: -1.43%. Then `O=[N+]([O-])c1ncn(CCn2cnc([N+](=O)[O-])n2)n1`, with inactive: -1.4%. For the molecule `O=[As](O)(c1ccccc1)c1ccc(O)cc1`, the inhibition was inactive: 1.75%. Then `Nc1ccc([As](=O)(O)c2ccc([N+](=O)[O-])cc2)cc1`, with inactive: -0.938%; and `C(Cc1nn[nH]n1)Cc1nn[nH]n1`, with inactive: 0.673%; and `O=C(OC1CN2CCC1CC2)c1cccc(Cl)c1` (stereo unspecified), with inactive: -2.44%. The result for `CC1CCC(C(C)C)C(OP(=O)(Nc2ccccn2)c2ccccc2)C1` (stereo unspecified) reads inactive: -1.2%; that for `Cc1ccc(C(=O)OC2CN3CCC2CC3)cc1` (stereo unspecified), inactive: 0.398%.

For the molecule `Cc1nn(-c2ccccc2)c2c1P(=O)(N1CCOCC1)N(C)C(c1ccccc1)=N2` (stereo unspecified), the inhibition was inactive: 0.401%. Then `CCCC1OP(=O)(Nc2ccccc2)OCC1CC` (stereo unspecified), with inactive: -1.87%. The result for `O=C(/C=C/c1ccccc1)OC1CN2CCC1CC2` (stereo unspecified) reads inactive: -3.8%.

With `CN(C)C1(CNC(=O)c2ccc(S(C)(=O)=O)cc2)CCCCC1`, the inhibition was inactive: 0.896%. Then `O=P1(Nc2ncccn2)COc2ccccc2OC1`, with inactive: -1.4%; and `Cc1ccc(S(=O)(=O)N(CCCN)CCCc2c(C)nc(N)[nH]c2=O)cc1`, with inactive: -0.321%; and `O=P1(Nc2ccc(Br)cn2)COc2ccccc2OC1`, with inactive: -5.37%. Then `NS(=O)(=O)c1cccc(NC(=O)COC(=O)C(O)(c2ccccc2)c2ccccc2)c1`, with inactive: -4.2%. Then `Cc1ccc(OCC(=O)OC2CN3CCC2CC3)cc1` (stereo unspecified), with inactive: -1.69%; and `O=[As](O)(c1cccs1)c1cccs1`, with inactive: -0.698%.

As for `Nc1cccc([As](=O)(O)c2ccccc2)c1`, the inhibition is inactive: -2.34%. The result for `CN(CCCl)Cc1cc(Cl)c(NC2=NCCN2)c(Cl)c1` reads inactive: -3.86%; that for `CCOP(=O)(Nc1ccc(C)cn1)OCC`, inactive: 1.43%; that for `CCOP(=O)(NC(=NC(C)c1ccccc1)NC(C)c1ccccc1)OCC` (stereo unspecified), inactive: -0.106%.

On to `O=P1(Nc2ccccn2)COc2ccccc2OC1`, for which the inhibition is inactive: -2.15%. As for `CCC1=CC2Cc3nc4ccc(Cl)cc4c(N)c3C(C1)C2` (stereo unspecified), the inhibition was inactive: -8.55%. On to `CC(C)(C)C(=O)NC(Sc1ncccn1)C(Cl)(Cl)Cl` (stereo unspecified), for which the inhibition was inactive: -5.16%. The result for `O=P1(N(CCCl)CCCl)NCCC(C(F)(F)F)O1` (stereo unspecified) reads inactive: -2.96%; that for `Clc1n[nH]nc1-c1nn[nH][15n]1`, inactive: 0.0055%; that for `COc1ccccc1CNC(=O)COC(=O)C(O)(c1ccccc1)c1ccccc1`, inactive: -4.91%.

Consider `CC1(CBr)Cn2c(nc3ccccc3c2=O)S1` (stereo unspecified), for which the inhibition is inactive: -4.89%. The result for `CC(C)/C=N\N=C(\N)N[N+](=O)[O-]` reads inactive: -0.982%; that for `CN(C(=O)Cc1ccc(Cl)c(Cl)c1)[C@@H]1CCCC[C@H]1N1CCCC1`, inactive: -0.608%.

Regarding `CS(=O)(=O)c1ccc(Cl)c(NC(=O)COC(=O)C(O)(c2ccccc2)c2ccccc2)c1`, the inhibition was inactive: -4.74%. Then `COc1cc(C(=O)NCC2(N3CCOCC3)CCCCC2)cc(Cl)c1OC(C)C`, with inactive: -5.08%. Then `O=[As](O)(O)c1cccnc1`, with inactive: -3.12%. In the case of `O=C(OC1CN2CCC1CC2)c1ccc(Cl)cc1` (stereo unspecified), the inhibition is inactive: 0.316%. Consider `O=[As](O)(c1cccc(O)c1)c1cccc(O)c1`, for which the inhibition was inactive: 0.09%.

For `Cc1cccc(OCC(=O)OC2CN3CCC2CC3)c1` (stereo unspecified), the inhibition was inactive: -2.21%. With `CCCOP(=S)(Nc1nc(N)cc(=O)[nH]1)OCCC`, the inhibition is inactive: -3.84%. With `Cc1ccc(NCCc2c([N+](=O)[O-])cc([N+](=O)[O-])cc2[N+](=O)[O-])cc1`, the inhibition is inactive: 2.07%.

In the case of `Nc1cccc2c([As](=O)(O)O)cccc12`, the inhibition is active: 8.55%. In the case of `CCOP(=O)(Nc1cccc2ccccc12)OCC`, the inhibition was inactive: -0.797%.

As for `COc1cc(C2NCCC3(OCCO3)C2(C)C)cc(OC)c1OC` (stereo unspecified), the inhibition is inactive: 0.247%. Then `CS(=O)(=O)c1cc([N+](=O)[O-])c2no[n+]([O-])c2c1`, with inactive: -3.27%; and `O=P(Nc1nccs1)(c1ccccc1)c1nc2ccccc2s1` (stereo unspecified), with inactive: -4.25%; and `O=P(Nc1nccs1)(Oc1ccccc1)Oc1ccccc1`, with inactive: -1.07%. Then `CCOP1(=S)c2c(C)nn(CCC#N)c2N=C(c2ccccc2F)N1C` (stereo unspecified), with inactive: -2.39%. With `Nc1ccccc1[As](=O)(O)c1ccccc1`, the inhibition is inactive: 0.485%. Regarding `O=C(O)COc1ccc([As](=O)(O)O)cc1[N+](=O)[O-]`, the inhibition is inactive: -1.68%.

Regarding `NC(=O)Nc1ccc([As](=O)(O)O)cc1`, the inhibition is inactive: -2.33%. The result for `CN(C(=O)Cc1ccc(Cl)c(Cl)c1)[C@H]1CC[C@@]2(CCCO2)C[C@@H]1N1CCCC1` reads inactive: -2.86%.

In the case of `CN(C)C(=O)c1cc([N+](=O)[O-])cc2c1-c1c(cc([N+](=O)[O-])cc1[N+](=O)[O-])C2=O`, the inhibition was inactive: -3.68%.

The values above are taken from PubChem BioAssay AID588549 (Broad Institute, 2011).
